Compound potency records, mixed from different reports. Data source: NIAID ChemDB in PubChem.

All rows: enzyme or target tests; species: Toxoplasma gondii; target: Dihydrofolate reductase; endpoint: IC50

ICn is the concentration giving n% inhibition. Lines come from different laboratories, so protocols vary.

structure | value
Nc1nc(N)c2cc(COC(=O)c3ccsc3)ccc2n1 | 0.33 µM
Nc1nc(N)c2c(n1)C1CCC(C2)C1 | 5.1 µM
COc1ccc2cc(C(C)Cc3coc4nc(N)nc(N)c34)ccc2c1 | 28 µM
Nc1nc(N)c2c(n1)CC1CC(=O)CC2C1 | 34 µM
Nc1nc2[nH]c(CCc3ccccn3)cc2c(=O)[nH]1 | >38 µM
COc1ccc2c(c1)-c1cc3c(N)nc(N)nc3nc1CC2 | 0.091 µM
Nc1nc(N)c2cc(COC(=O)C(c3ccccc3)c3ccccc3)ccc2n1 | 6.4 µM
Nc1nc2[nH]c(CCc3ccccc3Cl)cc2c(=O)[nH]1 | 34 µM
COc1ccc2c(c1)CCc1cc3c(N)nc(N)nc3nc1-2 | 0.11 µM
Cc1cc(C)cc(C(=O)OCc2ccc3nc(N)nc(N)c3c2)c1 | 0.13 µM
C/C(=C\c1coc2nc(N)nc(N)c12)c1ccccc1Cl | 12 µM
COc1ccc(CCc2cc3c(=O)[nH]c(N)nc3[nH]2)cc1 | >37 µM
CC1(C)CN2CCC1c1nc(N)nc(N)c12 | 46 µM
COc1cc(C(C)Cc2c[nH]c3nc(N)nc(N)c23)cc(OC)c1OC | 0.0414 µM
COc1ccc(OC)c(CCc2cc3c(=O)[nH]c(N)nc3[nH]2)c1 | >30 µM
CC(Cc1c[nH]c2nc(N)nc(N)c12)c1ccc2c(c1)Cc1ccccc1-2 | 0.0483 µM
C/C(=C/c1coc2nc(N)nc(N)c12)c1cc(Cl)c(Cl)c(Cl)c1 | 27 µM
COc1ccc2ccc3cc4c(N)nc(N)nc4nc3c2c1 | 1.85 µM
Nc1nc(N)c2cc(COC(=O)c3ccccc3)ccc2n1 | 0.099 µM

Again, the opening 3 rows:

structure	value
Nc1nc(N)c2cc(COC(=O)c3ccsc3)ccc2n1	0.33 µM
Nc1nc(N)c2c(n1)C1CCC(C2)C1	5.1 µM
COc1ccc2cc(C(C)Cc3coc4nc(N)nc(N)c34)ccc2c1	28 µM